Values quoted from earlier work as cited in patent US20070027088A1 (priority 2003, published 2007).

What was measured:
MHC II molecule = settings: cited from earlier work
[1] = tested on: three separate and antigenically distinct toxins; settings: mouse, in vivo; cited from earlier work
a large number of toxins = settings: cited from earlier work

CMYGGVTEHEGN
binding to MHC II (MHC II molecule): binds to a MHC II molecule | blocking of lethal effects of toxins [1]: block the lethal effects of three separate and antigenically distinct toxins | inhibition of blastogenic properties of toxins (a large number of toxins): inhibit blastogenic properties of a large number of toxins
